Taken from: PubChem BioAssay AID624099 (ICCB-Longwood, 2012)
Here is one part, drawn at random, of about 21,000 reagents. In the full data, 497 (2.4%) got an active call. 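Higher z means weaker E2 silencing; only reporter increases were scored, and knock-downs that hurt cell survival may mask genuine repressor factors.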

- Screen: 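Human genes that papillomavirus E2 requires to repress the HPV18 LCR promoter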 (primary screen)
- System: human C33A cervical carcinoma cells (HPV-negative) stably expressing BPV1 E2 and an HPV18 LCR luciferase reporter
- Knock-down reagent: siRNA pool against human genes, 40 nM
- Time to read-out: 72 h
- Measured: 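HPV18 LCR reporter light per well, converted to plate-wise z-scores that exclude control wells, and averaged over triplicate plates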
- Reading the numbers: mean z-score and z-score: higher = stronger reporter signal, weaker E2 silencing
- Hit rule: 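Hit if mean z-score reaches 2 and two or more of three replicate z-scores also reach 2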

For CCNDBP1, how do the results read?
mean z-score: 0.41; z-score, replicate A: 0.5; z-score, replicate B: 0.27; z-score, replicate C: 0.45; activity call: inactive

With C4orf36, how do the results read?
mean z-score: -0.1; z-score, replicate A: -0.06; z-score, replicate B: 0.05; z-score, replicate C: -0.27; activity call: inactive

What is on record for DTX1?
mean z-score: -0.26; z-score, replicate A: 0.04; z-score, replicate B: -0.41; z-score, replicate C: -0.42; activity call: inactive

For RUBCN, what does the deposit list?
mean z-score: -0.16; z-score, replicate A: -0.39; z-score, replicate B: -0.13; z-score, replicate C: 0.03; activity call: inactive

With RPS3AP6, how do the results read?
mean z-score: 0.38; z-score, replicate A: 0.7; z-score, replicate B: -0.01; z-score, replicate C: 0.45; activity call: inactive

For CLCN1, what was measured?
mean z-score: -0.35; z-score, replicate A: -0.49; z-score, replicate B: -0.23; z-score, replicate C: -0.34; activity call: inactive

What did the screen give for SOD3?
mean z-score: 0.26; z-score, replicate A: 0.15; z-score, replicate B: 0.26; z-score, replicate C: 0.36; activity call: inactive

Which result is listed for MAP3K8?
mean z-score: 0.14; z-score, replicate A: 0.01; z-score, replicate B: 0.32; z-score, replicate C: 0.09; activity call: inactive

What is on record for FANCD2OS?
mean z-score: -1.26; z-score, replicate A: -0.9; z-score, replicate B: -1.47; z-score, replicate C: -1.41; activity call: inactive

With HERC5, how do the results read?
mean z-score: 0.55; z-score, replicate A: 0.58; z-score, replicate B: 0.42; z-score, replicate C: 0.66; activity call: inactive

With LMO1, how do the results read?
mean z-score: 1.86; z-score, replicate A: 1.98; z-score, replicate B: 1.42; z-score, replicate C: 2.17; activity call: inactive

How did the screen score LOC390846?
mean z-score: 0.31; z-score, replicate A: 0.44; z-score, replicate B: -0.04; z-score, replicate C: 0.51; activity call: inactive

For MAL2, what does the deposit list?
mean z-score: 0.21; z-score, replicate A: 0.02; z-score, replicate B: 0.3; z-score, replicate C: 0.3; activity call: inactive

As entered above.
C4orf36, z-score, replicate A = -0.06
RUBCN, mean z-score = -0.16

The listing continues.
How did the screen score ABCD4?
mean z-score: 1.54; z-score, replicate A: 1.52; z-score, replicate B: 1.72; z-score, replicate C: 1.38; activity call: inactive

How did the screen score DCAF12L1?
mean z-score: -1.64; z-score, replicate A: -1.87; z-score, replicate B: -1.51; z-score, replicate C: -1.55; activity call: inactive

Which result is listed for ITGB6?
mean z-score: 0.86; z-score, replicate A: 0.94; z-score, replicate B: 0.81; z-score, replicate C: 0.83; activity call: inactive

What is on record for SENP7?
mean z-score: 0.5; z-score, replicate A: 0.83; z-score, replicate B: 0.46; z-score, replicate C: 0.22; activity call: inactive

What did the screen give for ACER2?
mean z-score: 0.96; z-score, replicate A: 1.05; z-score, replicate B: 0.93; z-score, replicate C: 0.9; activity call: inactive

How did the screen score ZNF431?
mean z-score: 0.23; z-score, replicate A: 0.28; z-score, replicate B: 0.1; z-score, replicate C: 0.29; activity call: inactive

With GDA, how do the results read?
mean z-score: -0.83; z-score, replicate A: -1.12; z-score, replicate B: -0.49; z-score, replicate C: -0.89; activity call: inactive

With OR4X1, what does the deposit list?
mean z-score: -0.36; z-score, replicate A: -0.31; z-score, replicate B: -0.18; z-score, replicate C: -0.58; activity call: inactive
